In patent EP4821928A1, “BICYCLIC HETEROCYCLIC COMPOUND AND FUNGICIDE FOR AGRICULTURAL AND HORTICULTURAL USE CONTAINING SAME AS ACTIVE INGREDIENT” (dated 2026):

What was measured:
Magnaporthe grisea = assay: Rice blast disease pot test (Test Example A); settings: for Rice blast disease pot test (control value): 250 ppm sprayed, 2.5 ml/pot, rice variety Sachikaze, degree of disease development 6 to 8 days after inoculation
Botrytis cinerea = assay: Tomato gray mold pot test (Test Example B); settings: for Tomato gray mold pot test (control value): 250 ppm sprayed, 2.5 ml/pot, tomato variety Oogata Fukuju, degree of disease development 2 to 3 days after inoculation
[1] = system: Gray mold fungus (Botrytis cinerea); assay: Gray mold anti-germ test (Test Example C); settings: for Gray mold anti-germ test (rate of inhibition): 50 ppm/well, Czapek-dox broth, 25°C for 3 days, absorbance 600 nm
[2] = system: Fusarium blight fungus (Fusarium graminearum); assay: Fusarium blight anti-germ test (Test Example D); settings: for Fusarium blight anti-germ test (rate of inhibition): 50 ppm/well, Czapek-dox broth, 25°C for 3 days, absorbance 600 nm
[3] = system: Anthracnose fungus (Glomerella cingulata); assay: Anthracnose anti-germ test (Test Example E); settings: for Anthracnose anti-germ test (rate of inhibition): 50 ppm/well, Czapek-dox broth, 25°C for 3 days, absorbance 600 nm
[4] = system: Speckled leaf blotch fungus (Septoria tritici); assay: Speckled leaf blotch anti-germ test (Test Example F); settings: for Speckled leaf blotch anti-germ test (rate of inhibition): 50 ppm/well, Czapek-dox broth, 25°C for 3 days, absorbance 600 nm

Compound | Rice blast disease pot test (control value) (Magnaporthe grisea) | Tomato gray mold pot test (control value) (Botrytis cinerea) | Gray mold anti-germ test (rate of inhibition) [1] | Fusarium blight anti-germ test (rate of inhibition) [2] | Anthracnose anti-germ test (rate of inhibition) [3] | Speckled leaf blotch anti-germ test (rate of inhibition) [4] | control value (Magnaporthe grisea; Test Example A, rice blast disease pot test) | control value (Botrytis cinerea; Test Example B, tomato gray mold pot test) | rate of inhibition ([1]; Test Example C, gray mold anti-germ test) | rate of inhibition ([2]; Test Example D, Fusarium blight anti-germ test) | rate of inhibition ([3]; Test Example E, anthracnose anti-germ test) | rate of inhibition ([4]; Test Example F, speckled leaf blotch anti-germ test)
Cc1c(Cl)ccc2c1ncn2C1=NC(C)(C)Sc2c(F)cccc21 | H (H represents a control value or rate of inhibition of larger than 50%) | H (H represents a control value or rate of inhibition of larger than 50%) | H (H represents a control value or rate of inhibition of larger than 50%) | H (H represents a control value or rate of inhibition of larger than 50%) | H (H represents a control value or rate of inhibition of larger than 50%) | L (L represents a control value or rate of inhibition of 50% or less) | – | – | – | – | – | –
Cc1cccc2c1SC(C)(C)N=C2n1cnc2c(C)c(C)ccc21 | H (H represents a control value or rate of inhibition of larger than 50%) | H (H represents a control value or rate of inhibition of larger than 50%) | H (H represents a control value or rate of inhibition of larger than 50%) | H (H represents a control value or rate of inhibition of larger than 50%) | H (H represents a control value or rate of inhibition of larger than 50%) | H (H represents a control value or rate of inhibition of larger than 50%) | – | – | – | – | – | –
Cc1ccc2c(c1)C(n1cnc3c(C)c(C)ccc31)=NC(C)(C)O2 | H (H represents a control value or rate of inhibition of larger than 50%) | H (H represents a control value or rate of inhibition of larger than 50%) | H (H represents a control value or rate of inhibition of larger than 50%) | H (H represents a control value or rate of inhibition of larger than 50%) | H (H represents a control value or rate of inhibition of larger than 50%) | H (H represents a control value or rate of inhibition of larger than 50%) | – | – | – | – | – | –
Cc1c(Br)ccc2c1ncn2C1=NC(C)(C)S(=O)(=O)c2ccccc21 | L (L represents a control value or rate of inhibition of 50% or less) | H (H represents a control value or rate of inhibition of larger than 50%) | H (H represents a control value or rate of inhibition of larger than 50%) | H (H represents a control value or rate of inhibition of larger than 50%) | H (H represents a control value or rate of inhibition of larger than 50%) | L (L represents a control value or rate of inhibition of 50% or less) | – | – | – | – | – | –
Cc1cc(C)c2c(c1)C(n1cnc3c(Cl)cccc31)=NC(C)(C)O2 | H (H represents a control value or rate of inhibition of larger than 50%) | L (L represents a control value or rate of inhibition of 50% or less) | L (L represents a control value or rate of inhibition of 50% or less) | L (L represents a control value or rate of inhibition of 50% or less) | L (L represents a control value or rate of inhibition of 50% or less) | L (L represents a control value or rate of inhibition of 50% or less) | – | – | – | – | – | –
CCC1(C)N=C(c2cnn3cc(C)ccc23)c2ccccc2O1 (stereo not drawn) | – | – | – | – | – | – | H (H represents a control value or rate of inhibition of larger than 50%) | H (H represents a control value or rate of inhibition of larger than 50%) | H (H represents a control value or rate of inhibition of larger than 50%) | H (H represents a control value or rate of inhibition of larger than 50%) | H (H represents a control value or rate of inhibition of larger than 50%) | H (H represents a control value or rate of inhibition of larger than 50%)
Cc1ccc2c(c1)OC(C)(C)N=C2n1cnc2c(C)c(Cl)cnc21 | H (H represents a control value or rate of inhibition of larger than 50%) | H (H represents a control value or rate of inhibition of larger than 50%) | H (H represents a control value or rate of inhibition of larger than 50%) | H (H represents a control value or rate of inhibition of larger than 50%) | H (H represents a control value or rate of inhibition of larger than 50%) | L (L represents a control value or rate of inhibition of 50% or less) | – | – | – | – | – | –
Cc1ccc2c(ncn2C2=NC(C)(C)Oc3ccccc32)c1C | H (H represents a control value or rate of inhibition of larger than 50%) | H (H represents a control value or rate of inhibition of larger than 50%) | H (H represents a control value or rate of inhibition of larger than 50%) | H (H represents a control value or rate of inhibition of larger than 50%) | H (H represents a control value or rate of inhibition of larger than 50%) | H (H represents a control value or rate of inhibition of larger than 50%) | – | – | – | – | – | –
Cc1ccc2c(ncn2C2=NC(C)(C)[S+]([O-])c3cc(F)ccc32)c1C (stereo not drawn) | H (H represents a control value or rate of inhibition of larger than 50%) | H (H represents a control value or rate of inhibition of larger than 50%) | H (H represents a control value or rate of inhibition of larger than 50%) | H (H represents a control value or rate of inhibition of larger than 50%) | H (H represents a control value or rate of inhibition of larger than 50%) | L (L represents a control value or rate of inhibition of 50% or less) | – | – | – | – | – | –
